Measured values from several laboratories, pooled; numbers as filed in NIAID ChemDB.

Shared fields: host cell toxicity; cell line: MT-4; measure: CC50

Rows are shuffled and stem from different studies. An empty or dashed field is not shown. CCn: concentration that lowers growth or viability of the cells by n%.

compound | read by | result
CCc1csc(NC(=S)NCCc2c(F)cccc2F)n1 |  | >305 µM
N#Cc1cc(Cl)cc(Oc2cc(OCC(=O)Nc3ccncc3C(F)(F)F)ccc2Cl)c1 | microscopy | >20 µM
Nc1ncnc2c1ncn2[C@@H]1O[C@H](CO)C[C@H]1N | trypan blue | 220 µg/mL
COc1cccc(CCNC(=S)Nc2nccs2)c1 |  | 143 µM
Cc1c(Sc2ccccc2)n(COCc2ccccc2)c(=O)[nH]c1=O |  | 123 µM
COc1ccc(CCNc2nc(NC(=S)Nc3ccccc3C)nc(Oc3cc(=O)oc4ccccc34)n2)cc1OC | MTT | 20.03 µg/mL
Cc1cccc(Nn2cnc(C)c2C)c1 |  | 312 µM
C[C@H](NP(=O)(OC[C@H]1C=C[C@@H](n2cnc3c(N)ncnc32)C1)Oc1ccccc1)C(=O)OC(C)(C)C | MTS | 85 µM
CCOC(=O)CNc1nc(Nc2ccc(C)cc2)nc(Oc2cc(=O)oc3ccccc23)n1 | MTT | 45.53 µg/mL
Cc1cccc(Nn2cnc(C)c2-c2cccc(C#N)c2)c1 |  | 44.7 µM
O=S(=O)(c1cccc2cnccc12)N1CCNCC1 |  | 14.8 µg/mL
Cc1cc(C#N)cc(C)c1Oc1nc(Nc2ccc(C#N)cc2)ncc1C#CC(=O)NCCCN1CCOCC1 | MTT | 59.2 µM
CCOC(=O)c1csc(NC(=S)NCCc2ccccc2)n1 |  | 60 µM
Cc1ccc2[nH]c(=S)n(Cc3c(F)cccc3F)c2c1 |  | >25 µg/mL
CC1=C(C(=O)Nc2ccccc2)C2=NN=C(N)C2C(=O)N1 | MTT | ≥94.7 µg/mL
CCOC(=O)CNc1nc(Nc2ccc(Cl)cc2)nc(Oc2cc(=O)oc3ccccc23)n1 | MTT | 45.6 µg/mL
COC(=O)[C@H](Cc1ccccc1)NP(=O)(OC[C@@H]1C=C[C@H](n2ccc3c(N)ncnc32)C1)Oc1ccccc1 | MTS | 42 µM
N#Cc1csc(NC(=S)NCCc2c(F)cccc2F)n1 |  | 10 µM
Cc1cc(C)cc(S(=O)(=O)c2c(C(N)=O)[nH]c3ccc(Cl)cc23)c1 | MTT | 12.95 µM
CCOC(=O)CNc1nc(Nc2ccccc2OC)nc(Oc2cc(=O)oc3ccccc23)n1 | MTT | 72.3 µg/mL
CN(C)S(=O)(=O)c1ccc2c(c1)CCN2C(=O)COc1cc(Cl)cc(Oc2cc(Cl)cc(C#N)c2)c1 | microscopy | >20 µM
Cc1cc(C)cc(S(=O)(=O)c2c(C(=O)NS(C)(=O)=O)[nH]c3ccc(Cl)cc23)c1 | MTT | >283.5 µM
CCOCn1c(Cc2ccccc2)c(C(C)C)c(=O)[nH]c1=O | MTT | >100 µM
Cc1cc(C)cc(Sc2c(C)c(=O)[nH]c(=S)n2COCCO)c1 |  | 240 µM
Nc1ncnc2c1ncn2[C@@H]1O[C@H](CO)C[C@@H]1N | trypan blue | >500 µg/mL
CCc1c(Cc2cc(OC)cc(OC)c2)[nH]c(=S)[nH]c1=O | MTT | >100 µM
Fc1cccc(F)c1Cn1c(=S)[nH]c2ccc(Cl)nc21 |  | >125 µg/mL
COc1cc(Br)cnc1NC(=S)NCCc1c(F)cccc1F |  | >20.9 µg/mL
CCCOc1cccc(CCNC(=S)Nc2nccs2)c1 |  | 75 µM
COC(=O)C(C)(C)NP(=O)(OC[C@H]1C=C[C@@H](n2cnc3c(N)ncnc32)C1)Oc1ccccc1 | MTS | 20 µM
Cc1cn([C@H]2C[C@H](N=[N+]=[N-])[C@@H](CO)O2)c(=O)[nH]c1=O | MTT | 0.53 µg/mL
COc1ccc2[nH]c(=S)n(Cc3c(F)cccc3F)c2n1 |  | 17.81 µg/mL
CCOc1cccc(F)c1CCNC(=S)Nc1nccs1 |  | 37 µM
CC1=C(C(=O)Nc2cc(C)ccc2C)C2=NN=C(N)C2C(=O)N1 | MTT | 49.5 µg/mL
Cc1[nH]c(=S)n(Nc2ccccc2Cl)c1-c1ccccc1 |  | 162 µM
CCOC(=O)CNc1nc(NC(=O)Nc2ccc3ccccc3c2)nc(Oc2cc(=O)oc3ccccc23)n1 | MTT | >125 µg/mL
CCOCn1c(Cc2ccccc2)c(C(C)C)c(=O)[nH]c1=O |  | 141 µM
Cc1cc(C#N)cc(C)c1Oc1nc(Nc2ccc(C#N)cc2)ncc1C#CC(=O)NC1CC1 | MTT | 5.3 µM
CC(C)c1c(Cc2ccccc2)n(COCCOc2ccccc2)c(=O)[nH]c1=O | MTT | 35 µM
Cc1cc(C)cc(S(=O)(=O)c2c(C(=O)NC3CN(Cc4ccccc4C#N)C3)[nH]c3ccc(Cl)cc23)c1 | MTT | >235 µM
COc1ccc(CSc2nc(C(C#N)c3ccccc3Br)c(C)c(=O)[nH]2)cc1 | MTT | >86.65 µM
Fc1cccc(F)c1CCNC(=S)Nc1cccc(Br)n1 |  | >5 µg/mL
COc1ccc(CCNc2nc(NC(=S)Nc3cccc(C)c3)nc(Oc3cc(=O)oc4ccccc34)n2)cc1OC | MTT | 61.2 µg/mL
Cc1ncn(Nc2cccc(Cl)c2)c1-c1cccc(Cl)c1 |  | 11.94 µM
CC1=C(C(=O)Nc2ccc([N+](=O)[O-])cc2)C2=NN=C(N)C2C(=O)N1 | MTT | 56.8 µg/mL
NS(=O)(=O)c1ccc(NC(=O)COc2cc(Cl)cc(Oc3cncc(Br)c3)c2)c(Cl)c1 | microscopy | >20 µM
CO[C@H]([C@@H]1OC[C@@](O)(CO)[C@H]1N=[N+]=[N-])n1cc(C)c(=O)[nH]c1=O |  | >300 µM
CCc1c(Cc2cc(OC)cc(OC)c2)n(COCCOc2ccccc2)c(=O)[nH]c1=O | MTT | 41 µM
CO[C@@H]([C@@H]1OC[C@@](O)(CO)[C@H]1N=[N+]=[N-])n1cc(C)c(=O)[nH]c1=O |  | >300 µM
CCSCSc1nc(Cc2cccc3ccccc23)c(CC)c(=O)[nH]1 |  | >100 µM
Cn1c(COc2ccc(Cl)c(Oc3cc(Cl)cc(C#N)c3)c2)nc2ccccc21 | microscopy | >20 µM
CC1=C(C(=O)Nc2cccc([N+](=O)[O-])c2)C2=NN=C(N)C2C(=O)N1 | MTT | ≥101 µg/mL
CCC(=O)OCCOCn1c(Sc2ccccc2)c(C)c(=O)[nH]c1=O |  | 292 µM
N#Cc1cc(Cl)cc(Oc2cc(F)cc(OCc3[nH]nc4nc(N)ccc34)c2)c1 | microscopy | >20 µM
Cc1c(Sc2ccccc2)n(COCCOC(=O)c2ccccc2)c(=O)[nH]c1=O |  | 53 µM
Cc1cc(C)cc(S(=O)(=O)c2c(C(=O)NCCP(=O)(O)O)[nH]c3ccc(Cl)cc23)c1 | MTT | >265 µM
CNc1ncnc2c1ncn2[C@@H]1O[C@H](CO)C[C@@H]1N=[N+]=[N-] |  | 100.8 µg/mL
Fc1cccc(NC(=S)NCCc2c(F)cccc2F)n1 |  | >25 µg/mL
CCOCn1c(Cc2cccc3ccccc23)c(CC)c(=O)[nH]c1=O |  | 46 µM
N#Cc1cc(Cl)cc(Oc2cc(OCc3nc4ccccc4s3)ccc2Cl)c1 | microscopy | >20 µM
O=c1ccn([C@@H]2CO[C@@H](CO)S2)c(=O)[nH]1 |  | >100 µg/mL
O=[N+]([O-])c1ccccc1CCNC(=S)Nc1nccs1 |  | 123 µM
NC[C@H]1O[C@@H](n2cnc3c(N)ncnc32)C[C@@H]1N | trypan blue | >500 µg/mL
Nc1nc(=O)n([C@H]2C[C@H](O)[C@@H](CO)O2)cc1[N+](=O)[O-] |  | 38 µM
N#Cc1cc(Cl)cc(Oc2cc(Cl)cc(OCC(=O)Nc3ccc(C#N)cc3Cl)c2)c1 | microscopy | >20 µM
CCc1c(Cc2ccccc2)n(COCCOc2ccccc2)c(=O)[nH]c1=O | MTT | 32 µM
Cc1[nH]c(=S)n(Nc2ccccc2)c1-c1ccccc1 |  | 191 µM
CC1=C(C(=O)Nc2ccccc2Cl)C2=NN=C(N)C2C(=O)N1 | MTT | 42.6 µg/mL
Cc1[nH]c(=S)n(Nc2cccc(Cl)c2)c1-c1cccc(C#N)c1 |  | 99.4 µM
Cc1cc(C)cc(S(=O)(=O)c2c(C(=O)NS(=O)(=O)c3ccc(F)cc3)[nH]c3ccc(Cl)cc23)c1 | MTT | 121 µM
Nc1nc(=O)n([C@H]2CO[C@@H](CO)S2)cc1F |  | >100 µg/mL
COC(=O)[C@H](C)NP(=O)(OC[C@H]1CC[C@@H](n2ccc3c(N)ncnc32)C1)Oc1ccccc1 | MTS | >80 µM
[N-]=[N+]=N[C@H]1C[C@@H](CO)O[C@H]1n1cnc2c(NC3CCCC3)ncnc21 |  | >125 µg/mL
Cc1c(Sc2ccccc2)n(COCCN=[N+]=[N-])c(=O)[nH]c1=O |  | 169 µM
N#Cc1cccc(Oc2cc(Cl)cc(OCC(=O)Nc3ccc(S(N)(=O)=O)cc3Cl)c2)c1 | microscopy | >20 µM
C=C1CC[C@]2(OC)OC(=O)C(C)=C2[C@@H]2[C@@H]1[C@@]13O[C@@]1(C[C@@H](C)[C@@H]3O)[C@H]1O[C@@]21C | MTT | 31.46 µg/mL
Nc1ccn([C@@H]2CO[C@@H](CO)S2)c(=O)n1 |  | >100 µg/mL
Cc1nc(NC(=S)NCCc2c(F)cccc2F)ccc1Br |  | >5 µg/mL
CCOC(=O)C#Cc1cnc(Nc2ccc(C#N)cc2)nc1Oc1c(C)cc(C#N)cc1C | MTT | 34.5 µM
NC[C@@H]1C[C@H](O)[C@H](n2cnc3c(N)ncnc32)O1 | trypan blue | >500 µg/mL
CCOC(=O)CNc1nc(Nc2ccccc2Cl)nc(Oc2cc(=O)oc3ccccc23)n1 | MTT | 67.7 µg/mL
Cc1cccnc1NC(=S)NCCc1c(F)cccc1F |  | >25 µg/mL
CCOCn1c(Cc2cc(OC)cc(OC)c2)c(C(C)C)c(=O)[nH]c1=O | MTT | >100 µM
Nc1ccn([C@H]2CO[C@@H](CO)S2)c(=O)n1 |  | 10 µg/mL
Cc1cc(C)cc(Cc2c(C(C)C)c(=O)[nH]c(=O)n2COCCOc2ccccc2)c1 | MTT | 35 µM
COCCNC(=O)C#Cc1cnc(Nc2ccc(C#N)cc2)nc1Oc1c(C)cc(C#N)cc1C | MTT | 13.6 µM
Fc1cccc(F)c1CCn1c(=S)[nH]c2cccnc21 |  | >25 µg/mL

The last 5 rows once more:

compound,read by,result
CCOCn1c(Cc2cc(OC)cc(OC)c2)c(C(C)C)c(=O)[nH]c1=O,MTT,>100 µM
Nc1ccn([C@H]2CO[C@@H](CO)S2)c(=O)n1,,10 µg/mL
Cc1cc(C)cc(Cc2c(C(C)C)c(=O)[nH]c(=O)n2COCCOc2ccccc2)c1,MTT,35 µM
COCCNC(=O)C#Cc1cnc(Nc2ccc(C#N)cc2)nc1Oc1c(C)cc(C#N)cc1C,MTT,13.6 µM
Fc1cccc(F)c1CCn1c(=S)[nH]c2cccnc21,,>25 µg/mL